# PSTVd loop 6 mutant pool in Nicotiana benthamiana

Data from the supplement of Wu et al. 2024, doi:10.1371/journal.ppat.1012142.

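Three N. benthamiana plants were inoculated with the whole mutant pool. Samples came from the inoculated region at 5 days, the leaf margin at 10 and upper systemic leaves at 12.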

Region: loop 6 of PSTVd (intermediate strain), upper and lower strand joined, each 5' to 3', the first 5 letters being the upper strand, closing pairs included. Wild type: UGACCGCGAG. Varied positions (N): UNNNCGNNNG.

Numbers give reads per thousand; 0 = not seen among the reads, higher = more abundant. Each site shows the three plants. "Pool" is the share in the plasmid pool used as inoculum, on the same scale. The inoculated region was read from the minus strand, the other sites from the plus strand.

sequence,pool,inoculated region,leaf margin,systemic leaves
UCGGCGCUCG,0.196,0.156 0.0180 0.0922,0.0276 0 0,0 0 0
UCGGCGCUGG,0.196,0.104 0.0539 0.0738,0.0276 0 0.0232,0 0 0
UCGGCGCUUG,0.353,0.261 0.0898 0,0.0276 0 0,0 0 0
UCGGCGGAAG,0.144,0.0695 0.0719 0.0553,0 0 0,0 0 0
UCGGCGGACG,0.261,0.0695 0.0359 0.0738,0 0 0.0232,0 0 0
UCGGCGGAGG,0.261,0.0348 0.108 0.0553,0 0 0,0 0 0
UCGGCGGAUG,0.248,0.0869 0.108 0.111,0 0 0,0 0 0
UCGGCGGCAG,0.314,0.0869 0.0180 0.0553,0 0 0,0 0 0
UCGGCGGCCG,0.366,0.0521 0.0719 0.0184,0 0 0,0 0 0
UCGGCGGCGG,0.288,0.104 0.144 0.0553,0 0 0.0232,0 0 0
UCGGCGGCUG,0.248,0.0869 0.0539 0.0738,0.0276 0 0,0 0 0
UCGGCGGGAG,0.288,0.122 0.0539 0.0922,0 0 0,0 0 0
UCGGCGGGCG,0.170,0.0521 0.0359 0.0922,0 0 0,0 0 0
UCGGCGGGGG,0.105,0.139 0.0359 0.0922,0 0 0.0464,0 0 0
UCGGCGGGUG,0.183,0.0869 0.0539 0.111,0.0276 0 0.0232,0 0 0
UCGGCGGUAG,0.288,0.139 0.108 0.0553,0 0 0.0232,0 0 0
UCGGCGGUCG,0.248,0.0695 0.0539 0.0922,0 0 0.0232,0 0 0
UCGGCGGUGG,0.314,0.174 0.0539 0.0738,0.0276 0.0252 0,0 0 0
UCGGCGGUUG,0.523,0.0695 0.108 0.111,0 0 0.0232,0 0 0.0205
UCGGCGUAAG,0.222,0.139 0.126 0.0553,0 0 0,0 0 0
UCGGCGUACG,0.458,0.139 0.0719 0.0369,0 0 0,0 0 0
UCGGCGUAGG,0.301,0.0521 0.0719 0,0 0 0,0 0 0
UCGGCGUAUG,0.353,0.0695 0.0719 0.0553,0.304 0 0,0 0 0
UCGGCGUCAG,0.301,0.122 0.0719 0.0922,0 0 0.0232,0 0 0.0410
UCGGCGUCCG,0.222,0.122 0.126 0.0553,0 0 0.0232,0 0 0
UCGGCGUCGG,0.261,0.191 0.0719 0.0922,0.0276 0 0,0 0 0
UCGGCGUCUG,0.392,0.0521 0.0539 0.0369,0.0276 0 0,0 0 0
UCGGCGUGAG,0.327,0.0521 0.144 0.129,0 0 0.0232,0 0 0
UCGGCGUGCG,0.209,0.139 0.108 0.0738,0 0 0.0464,0 0 0
UCGGCGUGGG,0.314,0.0174 0.0719 0.0553,0 0 0,0 0 0
UCGGCGUGUG,0.431,0.0521 0.0719 0.166,0.0276 0 0,0 0 0.0205
UCGGCGUUAG,0.458,0.104 0.108 0.129,0 0 0,0 0 0.0205
UCGGCGUUCG,0.248,0.0521 0.0539 0.0184,0.110 0 0,0 0 0
UCGGCGUUGG,0.353,0.174 0.0359 0.0553,0 0 0,0 0 0
UCGGCGUUUG,0.379,0.139 0.144 0.0922,0.0276 0 0,0 0 0.0205
UCGUCCAGGG,0.0131,0 0 0,0 0 0,0 0 0
UCGUCGAAAG,0.118,0.0521 0.0359 0.111,0.0276 0 0.0464,0 0 0
UCGUCGAACG,0.471,0.0695 0.0719 0.0553,0 0 0.0464,0 0 0
UCGUCGAAGG,0.183,0.0695 0.0719 0.0553,0 0 0,0 0 0
UCGUCGAAUG,0.222,0.104 0.0898 0.111,0 0 0,0 0 0
UCGUCGACAG,0.209,0.104 0.144 0.0922,0.0276 0 0.0232,0 0 0
UCGUCGACCG,0.222,0.0695 0.126 0.0553,0 0 0,0 0 0
UCGUCGACGG,0.209,0.139 0.0180 0.0553,0 0 0,0 0 0
UCGUCGACUG,0.196,0.104 0 0.0184,0 0 0,0 0 0
UCGUCGAGAG,0.235,0.156 0.216 0.0922,0.0552 0 0,0 0 0
UCGUCGAGCG,0.248,0.0521 0.0180 0.111,0 0 0,0 0 0
UCGUCGAGGG,0.183,0.0521 0.0898 0.129,0.0276 0 0.0464,0 0 0
UCGUCGAGUG,0.222,0.139 0.108 0.0553,0 0 0,0 0 0
UCGUCGAUAG,0.327,0.191 0.0898 0.0184,0.0276 0 0.162,0 0 0
UCGUCGAUCG,0.301,0.0695 0.0898 0.0922,0.0276 0 0,0 0 0
UCGUCGAUGG,0.445,0.174 0.144 0.0738,0 0 0,0 0 0
UCGUCGAUUG,0.471,0.104 0.126 0.0553,0 0 0.0232,0 0 0.0205
UCGUCGCAAG,0.0654,0.122 0.144 0.221,0 0 0.0464,0 0 0
UCGUCGCACG,0.170,0.0869 0.0539 0.0738,0 0 0,0 0 0
UCGUCGCAGG,0.157,0.0869 0.0898 0.0738,0.0276 0 0,0 0 0
UCGUCGCAUG,0.144,0.0695 0.0719 0.0922,0.0276 0 0,0 0 0
UCGUCGCCAG,0.131,0.122 0.0719 0.0369,0 0 0,0 0 0
UCGUCGCCCG,0.471,0.104 0.126 0.0553,0 0 0.0232,0 0 0
UCGUCGCCGG,0.196,0.0521 0.0180 0.0922,0.0276 0 0.0232,0 0 0
UCGUCGCCUG,0.144,0.104 0.0898 0.0922,0 0 0,0 0 0
UCGUCGCGAG,0.209,0.122 0.126 0.184,0.0828 0.303 0,0 0 0.0410
UCGUCGCGCG,0.157,0.122 0 0.0184,0 0 0,0 0 0
UCGUCGCGGG,0.288,0.209 0.144 0.111,0 0 0,0 0 0

Samples held 36,220 to 57,551 reads, so the smallest values rest on one or two reads. Sequences that differ at fixed positions probably stem from PCR or sequencing errors, and defective variants can be carried along by functional ones. Wild type was 20.7 per thousand in the pool and the most common sequence in every sample (inoculated region 195, 198, 203; leaf margin 629, 591, 734; systemic leaves 942, 870, 868).